Pooled drug test results. Numbers come from NIAID ChemDB, via PubChem.

Common to all: cytotoxicity tests; cells: C8166; read by: MTT; endpoint: CC50

CCn is the concentration with n% toxicity to the cells. Conditions beyond the fields shown may differ between rows.

Cc1cn([C@H]2C[C@H](N=[N+]=[N-])[C@@H](COP(=O)(OCc3ccccc3)OCc3ccccc3)O2)c(=O)[nH]c1=O ; result: >100 µM
Cc1cc(O)c2c(c1)C(=O)c1cc(O)cc(O[C@@H]3O[C@H](CO)[C@@H](O)[C@H](O)[C@H]3O)c1C2=O ; result: >200 µg/mL
C=C(C)[C@]12C[C@@H](C)[C@@]34OC(CCCCCCCCCCCCCCC)(O[C@@H]1[C@@H]3[C@@H]1O[C@]1(CO)[C@@H](O)[C@]1(O)C(=O)C(C)=C[C@H]14)O2 ; result: 22.8 µM
C=C(C)[C@@]1(OC(=O)c2ccccc2)[C@H](OC(C)=O)[C@@H]2[C@H](OC(C)=O)[C@@]3(C)O[C@@]4([C@@H]3O)[C@@H](OC(=O)c3ccccc3)[C@@H](C)C[C@H]4[C@@]2(O)[C@H](C)[C@@H]1OC(C)=O ; result: >200 µM
C=CC(C)(C)c1cc2cc3c(c(CC=C(C)C)c2oc1=O)O[C@H](C(C)(C)O)C3 ; result: >200 µM
COC(=O)c1ccc(COP(=O)(O)OC[C@H]2O[C@@H](n3cc(C)c(=O)[nH]c3=O)C[C@@H]2N=[N+]=[N-])cc1 ; result: 500 µM
C=C(C)[C@@]12OC3(c4ccccc4)O[C@@H]1[C@@H]1[C@@H]4O[C@]4(CO)[C@@H](O)[C@]4(O)C(=O)C(C)=C[C@H]4[C@@]1(O3)[C@H](C)[C@H]2OC(=O)/C=C/c1ccc(O)c(OC)c1 ; result: 43.4 µM
C/C=C/c1ccc(OCC=C(C)C)c(OC)c1 ; result: 359.6 µM
C=C(C)[C@@]1(OC(C)=O)[C@H](OC(C)=O)[C@@H]2[C@H](OC(C)=O)[C@@]3(C)O[C@@]4([C@@H]3O)[C@@H](OC(=O)c3ccccc3)[C@@H](C)C[C@H]4[C@@]2(O)[C@H](C)[C@@H]1OC(=O)c1ccccc1 ; result: >200 µM
CCn1cc(C(=O)OCC2OC(n3cc(C)c(=O)[nH]c3=O)CC2N=[N+]=[N-])c(=O)c2cc(F)c(N3CCN(C(=O)OCc4ccccc4)CC3)cc21 ; result: >285 µM
C=C(C)[C@@]12OC3(c4ccccc4)O[C@@H]1[C@@H]1[C@@H]4O[C@]4(CO)[C@@H](O)[C@]4(O)C(=O)C(C)=C[C@H]4[C@@]1(O3)[C@H](C)[C@H]2OC(=O)C(C)C ; result: >200 µM
COc1cc2cc3c(cc2oc1=O)OC(C)(C)C=C3 ; result: >200 µM
COC1=C(OC)C(=O)C23COc4c5c(cc(c42)[C@@H](OC(C)=O)[C@@H](C)[C@@H](C)CC3=C1)OCO5 ; result: 99.7 µg/mL
C=CCC1=C[C@@]2(CC=C(C)C)OCOC2=CC1=O ; result: 292.4 µM
OC[C@H]1O[C@@H](Oc2cc(O)c3c(c2)O[C@H](c2ccc(O)c(O)c2)[C@@H](O)C3)[C@H](O)[C@@H](O)[C@@H]1O ; result: 166 µg/mL
C/C=C(/C)C(=O)OC1c2cc3c(c4c2[C@](C(=O)C(=O)OC)(CO4)/C(=C\C(=O)OC)C[C@@H](C)[C@H]1C)OCO3 ; result: >200 µg/mL
COC(=O)c1ccc(COP(=O)(OCc2ccc(C(=O)OC)cc2)OC[C@H]2O[C@@H](n3cc(C)c(=O)[nH]c3=O)C[C@@H]2N=[N+]=[N-])cc1 ; result: 50 µM
COC(=O)C(N)(O)Cc1c[nH]c2ccccc12 ; result: >200 µg/mL
C=CCC1(CC=C(C)C)C=C2OCOC2=CC1=O ; result: 241.1 µM
C=C(C)[C@]12C[C@@H](C)[C@@]34OC(/C=C/C=C/CCCCC)(O[C@@H]1[C@@H]3[C@@H]1O[C@]1(CO)[C@@H](O)[C@]1(O)C(=O)C(C)=C[C@H]14)O2 ; result: 21.7 µM
S=C(Nc1cccc2ccccc12)Nn1c(-c2ccc(Cl)cc2)c[nH]c1=S ; result: 105 µM
CC(=O)c1cc(O)c(O)c(O[C@@H]2O[C@H](CO)[C@@H](O)[C@H](O)[C@H]2O)c1 ; result: >200 µg/mL
Cc1cn(C2CC(N=[N+]=[N-])C(COC(=O)c3cn4c5c(c(N6CCN(C)CC6)c(F)cc5c3=O)OCC4C)O2)c(=O)[nH]c1=O ; result: >328 µM
C=C(C)[C@@H]1Cc2cc3ccc(=O)oc3cc2O1 ; result: >200 µM
Cc1cn(C2CC(N=[N+]=[N-])C(COC(=O)c3cn(C4CC4)c4cc(N5CCN(C(=O)OCc6ccccc6)CC5)c(F)cc4c3=O)O2)c(=O)[nH]c1=O ; result: 130 µM
C=C(C)[C@@]12OC3(c4ccccc4)O[C@@H]1[C@@H]1[C@@H]4O[C@]4(CO)[C@@H](O)[C@]4(O)C(=O)C(C)=C[C@H]4[C@@]1(O3)[C@H](C)[C@H]2OC(=O)c1ccccc1 ; result: 92.3 µM
Cc1cccc2ccn(-c3ccccc3[N+](=O)[O-])c12 ; result: >200 µg/mL
C=C(C)[C@@]12OC3(c4ccccc4)O[C@@H]1[C@@H]1[C@@H]4O[C@]4(CO)[C@@H](O)[C@]4(O)C(=O)C(C)=C[C@H]4[C@@]1(O3)[C@H](C)[C@H]2OC(=O)/C=C/C=C/C=C/C(O)CC ; result: 25.8 µM
COc1cc2c(c(OC)c1OC)-c1c(cc3c(c1OC)OCO3)[C@H](OC(C)=O)[C@H](C)[C@H](C)C2 ; result: 97.1 µg/mL
COc1cc([C@H]2c3cc(O)c(OC)cc3C[C@@H](CO)[C@@H]2COS(=O)(=O)[O-])ccc1O.[Na+] ; result: 143 µg/mL
COc1c(N2CCN(C(=O)OCc3ccccc3)C(C)C2)c(F)cc2c(=O)c(C(=O)OCC3OC(n4cc(C)c(=O)[nH]c4=O)CC3N=[N+]=[N-])cn(C3CC3)c12 ; result: 25.11 µM
S=C(Nc1cccc2ccccc12)Nn1c(-c2ccc(Br)cc2)c[nH]c1=S ; result: 48.79 µM
C=C(C)[C@@]12OC3(/C=C/C=C/CCCCC)O[C@@H]1[C@@H]1[C@@H]4O[C@]4(CO)[C@@H](O)[C@]4(O)C(=O)C(C)=C[C@H]4[C@@]1(O3)[C@H](C)[C@H]2OC(=O)CC ; result: >200 µM
C=C(C)[C@]12C[C@@H](C)[C@@]34OC(c5ccccc5)(O[C@@H]1[C@@H]3[C@@H]1O[C@]1(CO)[C@@H](O)[C@]1(O)C(=O)C(C)=C[C@H]14)O2 ; result: 41 µM
C=CCc1cc(O)c2c(c1)OCO2 ; result: 439.5 µM
C=C(C)[C@@]12OC3(/C=C/C=C/C=C/CCC)O[C@@H]1[C@@H]1[C@@H]4O[C@]4(CO)[C@@H](O)[C@]4(O)C(=O)C(C)=C[C@H]4[C@@]1(O3)[C@H](C)[C@H]2OC(C)=O ; result: 20.6 µM
Cc1cc(O)c2c(c1)C(=O)c1cc(O[C@@H]3O[C@H](CO[C@@H]4O[C@@H](C)[C@H](O)[C@@H](O)[C@H]4O)[C@@H](O)[C@H](O)[C@H]3O)cc(O)c1C2=O ; result: 756 µg/mL
C=C(C)[C@@]1(O)[C@H](O)[C@@H]2[C@@H]3O[C@]3(CO)[C@@H](O)[C@]3(O)C(=O)C(C)=C[C@H]3[C@@]2(O)[C@H](C)[C@H]1OC(C)=O ; result: >200 µM
C=C1C([C@@H](C)[C@H]2CC=C(C)C(=O)O2)=CC[C@]2(C)[C@H]1C[C@]1(O)C=C3C=CC(=O)OC(C)(C)[C@@H]3[C@H](OC(C)=O)C[C@@H]21 ; result: 7.3 µg/mL
CC1=C(C(=O)O[C@]23OCC4(C)C2(C)C(=O)CC2([C@H](C)CC[C@@]24O)[C@H]3O)CCC1 ; result: 261.3 µM
OC[C@H]1O[C@@H](Oc2cc(O)cc3c2C[C@@H](O)[C@@H](c2ccc(O)c(O)c2)O3)[C@H](O)[C@@H](O)[C@@H]1O ; result: 182 µg/mL
Cc1cn(-c2ccccc2[N+](=O)[O-])c2ccccc12 ; result: 14.41 µg/mL
COc1cc([C@H](O)[C@H](COC(C)=O)Oc2ccc(C(=O)CCO)cc2OC)ccc1O ; result: 215.8 µg/mL
C=CC(C)(C)c1cc2cc3c(cc2oc1=O)O[C@H](C(C)(C)O)[C@H]3O ; result: >200 µM
S=C(Nc1ccc(Cl)cc1)Nn1c(-c2ccc(Cl)cc2)c[nH]c1=S ; result: >200 µM
Cc1cn([C@H]2C[C@H](N=[N+]=[N-])[C@@H](COP(=O)(O)O)O2)c(=O)[nH]c1=O ; result: >1000 µM
CCN1CCN(c2cc3c(cc2F)c(=O)c(C(=O)OCC2OC(n4cc(C)c(=O)[nH]c4=O)CC2N=[N+]=[N-])cn3C2CC2)CC1 ; result: >329 µM
Cc1cn([C@H]2C[C@H](N=[N+]=[N-])[C@@H](COP(=O)(OCc3ccc(C(=O)OC(C)C)cc3)OCc3ccc(C(=O)OC(C)C)cc3)O2)c(=O)[nH]c1=O ; result: 1 µM
CCn1cc(C(=O)O)c(=O)c2cc(F)c(N3CCN(Cc4cn(C5CC(N=[N+]=[N-])C(CO)O5)c(=O)[nH]c4=O)C(C)C3)c(F)c21 ; result: >324 µM
O=[N+]([O-])c1ccc(-n2ccc3cc([N+](=O)[O-])ccc32)cc1 ; result: 5.4 µg/mL
CC(C)=CCc1cc2ccc(=O)oc2c(CC=C(C)C)c1O ; result: >200 µM
O=[N+]([O-])c1ccc2c(ccn2-c2ccccc2[N+](=O)[O-])c1 ; result: 99.61 µg/mL
C=C(C)[C@@]12OC3(c4ccccc4)O[C@@H]1[C@@H]1[C@H](O)[C@](O)(CO)[C@@H](O)[C@]4(O)C(=O)[C@@H](C)C=C4[C@@]1(O3)[C@H](C)[C@H]2OC(=O)c1ccccc1 ; result: >200 µM
Cc1ccc(NC(=S)Nn2c(-c3ccc(Cl)cc3)c[nH]c2=S)c(C)c1 ; result: 25.21 µM
C=CC(C)(C)c1cc2cc(C[C@@H](O)C(C)(C)O)c(O)cc2oc1=O ; result: >200 µM